Results deposited as PubChem BioAssay AID624099 (ICCB-Longwood, 2012).
Test: 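Knock-downs relieving repression by E2 of an HPV18 LCR luciferase reporter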 (primary screen). Cell system: human C33A cervical carcinoma cells (HPV-negative) stably expressing BPV1 E2 and an HPV18 LCR luciferase reporter. Reagent: siRNA pool against human genes, 40 nM. Timing: 72 h. Detection: 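Per-well luciferase luminescence, z-scored on each plate against the plate mean and SD with control wells left out, then averaged across three replicate plates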. Direction: mean z-score and z-score: higher = stronger reporter signal, weaker E2 silencing. Active means: 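Mean z ≥ 2 together with z ≥ 2 in two or more of the three replicates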.
In all, the deposit lists about 21,000 reagents; shown is a random part of them. Of all reagents, 497 (2.4%) were called active. 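Higher z means weaker E2 silencing; only reporter increases were scored, and knock-downs that hurt cell survival may mask genuine repressor factors.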 Entries without a mark were called inactive. Reagents against one gene are numbered here.

RNPEP
- mean z-score: 0.41
- z-score, replicate A: 0.32
- z-score, replicate B: 0.52
- z-score, replicate C: 0.39

SPHKAP
- mean z-score: -0.59
- z-score, replicate A: -0.96
- z-score, replicate B: -0.4
- z-score, replicate C: -0.4

SLC22A20P
- mean z-score: 1.58
- z-score, replicate A: 1.42
- z-score, replicate B: 1.83
- z-score, replicate C: 1.5

LINC00944
- mean z-score: -0.49
- z-score, replicate A: -0.41
- z-score, replicate B: -0.34
- z-score, replicate C: -0.72

FOSL2
- mean z-score: 2.52 (active)
- z-score, replicate A: 2.56
- z-score, replicate B: 2.5
- z-score, replicate C: 2.49

CATSPERT
- mean z-score: 0.19
- z-score, replicate A: 0.73
- z-score, replicate B: 0.02
- z-score, replicate C: -0.17

MRPL39
- mean z-score: -0.43
- z-score, replicate A: -0.2
- z-score, replicate B: -0.34
- z-score, replicate C: -0.76

BCL9
- mean z-score: 1.89
- z-score, replicate A: 2.3
- z-score, replicate B: 1.63
- z-score, replicate C: 1.72

Called active, among the entries above:
FOSL2
- mean z-score: 2.52 (active)
- z-score, replicate A: 2.56
- z-score, replicate B: 2.5
- z-score, replicate C: 2.49

Further results:
CDK13
- mean z-score: -0.67
- z-score, replicate A: -1.34
- z-score, replicate B: -0.25
- z-score, replicate C: -0.41

GID8
- mean z-score: 0.58
- z-score, replicate A: 0.93
- z-score, replicate B: 0.87
- z-score, replicate C: -0.06

GGT3P #1
- mean z-score: -0.54
- z-score, replicate A: -0.41
- z-score, replicate B: -0.62
- z-score, replicate C: -0.6

GGT3P #2
- mean z-score: -2.55
- z-score, replicate A: -2.62
- z-score, replicate B: -2.56
- z-score, replicate C: -2.46

MPPED1
- mean z-score: -0.84
- z-score, replicate A: -0.53
- z-score, replicate B: -1.09
- z-score, replicate C: -0.9

BCL9L
- mean z-score: 0.79
- z-score, replicate A: 0.22
- z-score, replicate B: 0.78
- z-score, replicate C: 1.35
